From PMC4138406, “In vitro and in vivo anti-malarial activity of limonoids isolated from the residual seed biomass from Carapa guianensis (andiroba) oil production” (Malaria Journal, 2014) come the findings set out here.

The data set deals with MRC-5 human fibroblasts. The data set can be described thus: Cytotoxicity assay (AlamarBlue) on MRC-5 human fibroblasts. In kind it is cell-based. Particulars: MRC-5 vs P. falciparum K1. On the procedure:
The MRC-5 cell line of human fibroblasts was grown in Dulbecco’s Modified Eagle’s Medium (DMEM) supplemented with 10% fetal bovine serum, 2 mM glutamine, 100 μg/mL streptomycin and 100 U/mL penicillin, and incubated at 37°C with a 5% atmosphere of CO2. For assays, the cells were plated in 96-well plates (2.5 × 10^4 cells/well) and the AlamarBlue™ assay was performed using a previously described procedure. After incubation for 24 h, compounds 1-5 were individually dissolved in DMSO and the resulting solutions were diluted in culture medium. The resulting dilute solutions of each sample were added to wells at final (well) concentrations of 1.56-100 μg/mL. Control groups had final well concentrations of 0.1% DMSO. The plates were further incubated for 48 h. 3 h before the end of the incubation period, AlamarBlue™ (10 μL) was added to each well. The fluorescent signal was monitored with a multiplate reader using 530-560 nm excitation and 590 nm emission wavelengths.
For orientation: Resazurin is reduced to fluorescent resorufin, in cell work by metabolically active cells.

Take `CC1(C)C(=O)C=C[C@@]2(C)C1[C@@H](O)[C@@H](O)[C@]1(C)C2CC[C@@]2(C)[C@H](c3ccoc3)OC(=O)[C@H]3O[C@]321` (stereo partly drawn) [compound 5, 6α-hydroxydeacetylgedunin]: the “SI = IC50 (human fibroblasts)/IC50 (P. falciparum)” value is above 44.

In the case of `C=C1[C@@H]([C@@]2(C)C=CC(=O)C(C)(C)[C@@H]2CC(=O)OC)CC[C@@]2(C)[C@H](c3ccoc3)OC(=O)[C@H]3O[C@]132` [compound 2, andirobin], the “SI = IC50 (human fibroblasts)/IC50 (P. falciparum)” value was above 13.
